A mixed list of measured activities; the numbers were collected in NIAID ChemDB.

All rows: tests in culture; organism: HIV-1; cells: MT-4; read-out: EC50

Neighbouring rows are from separate reports. An empty or dashed field is not shown. ECn: concentration that inhibits the pathogen or its effect by n%.

SMILES | strain | changes | read by | setting | result
CCN1C(C)C(=O)Nc2c([N+](=O)[O-])cc(Cl)cc2S1(=O)=O |  |  | cytopathic effect / MTT |  | >105 µM
Cc1cn([C@@H]2O[C@]3(CO)CO[C@H]2C3)c(=O)[nH]c1=O | IIIB |  | antigen |  | >300 µM
Cc1cccc(C)c1OCC(=O)N[C@@H](Cc1ccccc1)[C@@H](O)C[C@H](Cc1ccccc1)NC(=O)[C@H](C(C)C)N1CCCNC1=O | HXB2 WT |  |  |  | 0.024 µM
Cc1cn([C@H]2C=C[C@@H](CO)O2)c(=O)[nH]c1=O | IIIB |  | trypan blue | 5 d | 0.65 µM
O=C1C=C2CC(C3=C4C(C5C(C6CC7=CC(=O)O[C@@]78C[C@@H]6N6CCCC68)C6=CC(=O)O[C@@]67C[C@@H]5N5CCCC57)=C[C@@H]5C[C@@]4(OC3=O)C3CCCN35)[C@@H]3C[C@@]2(O1)C1CCCN13 | NL4-3 |  | MTT |  | 97.3 µM
CN(C)C(=O)N1CCN(C(=O)N2CCCC2)CC1 | NL4-3 |  | MTT |  | >125 µg/mL
Nc1ncnc2c1ncn2[C@@H]1O[C@H](CO)[C@H]2CC[C@]21Cl | NL4-3 |  | MTT |  | 22.92 µg/mL
Cc1cn([C@H]2C[C@H](N=[N+]=[N-])[C@@H](CO)O2)c(=O)[nH]c1=O |  |  | cytopathic effect / trypan blue |  | 0.004 µM
C=S(=C)(C)c1ccc(CN2CCC(Nc3nc(Nc4c(C)cc(C)cc4C)c4[nH]cnc4n3)CC2)cc1 | IIIB |  | MTT |  | 3.93 µM
O=C(NCc1ccc(F)cc1F)[C@H](OCc1ccccc1)[C@H](O)[C@@H](O)[C@@H](OCc1ccccc1)C(=O)N[C@H]1c2ccccc2C[C@H]1O |  |  | cytopathic effect / XTT |  | >100 µM
NC(=O)c1ncn([C@@H]2O[C@H](CO)[C@@H](O)[C@H]2O)n1 |  |  | cytopathic effect / trypan blue |  | >20 µM
COC(=O)[C@@H](C)NC(=O)c1c(C)cc2c(c1O)-c1c(cc3c(c1O)C(=O)c1cc(OC)cc(O)c1C3=O)[C@H](O)[C@H]2O[C@@H]1O[C@H](CO)[C@H](N)[C@H](O)[C@H]1O | IIIB |  | antigen |  | <30 µg/mL
Cc1cn([C@H]2C[C@H](N=[N+]=[N-])[C@@H](CO)O2)c(=O)[nH]c1=O | HXB2 WT |  |  |  | 0.016 µM
CCCN(C)C(=O)Oc1nsnc1-c1c(Cl)ccc(N)c1Cl | clinical isolate A018A AZT-sensitive |  | p24 |  | 0.0058 µM
COc1cc(O)c2c(c1)C(=O)c1c(cc3c(c1O)-c1c(cc(C)c(C(=O)NC(C)C(=O)O)c1O)[C@H](OC1OC(C)C(N)C(O)C1O)[C@H]3O)C2=O | IIIB |  | antigen |  | >30 µg/mL
[NH4+] | GUN1 |  | antigen |  | >100 µg/mL
CCN(CC)C(=O)N1CCN(C(=O)N2CCCC2)CC1 | NL4-3 |  | MTT |  | >125 µg/mL
Cc1cn([C@@H]2O[C@H](COC(=O)C(C)(C)C)C3(OS(=O)(=O)C=C3N)[C@H]2O[Si](C)(C)C(C)(C)C)c(=O)[nH]c1=O | IIIB |  | syncytia |  | 13 µM
CCN(CC(=O)O)S(=O)(=O)c1cc(Cl)ccc1N |  |  | cytopathic effect / MTT |  | >200 µM
Cc1cn([C@H]2C[C@H](N=[N+]=[N-])[C@@H](CO)O2)c(=O)[nH]c1=O | NL4 Suc-HSA-resistant |  | cytopathic effect / MTT |  | 0.007 µg/mL
C=S(=C)(N)c1ccc(CN2CCC(Nc3nc(Nc4c(C)cc(C)cc4C)c4[nH]cnc4n3)CC2)cc1 | IIIB |  | MTT |  | 4.24 µM
Cc1cn([C@H]2C[C@H](N=[N+]=[N-])[C@@H](CO)O2)c(=O)[nH]c1=O |  |  | MTT |  | 0.0007 µg/mL
CN=C(NC#N)NCCSCc1nc[nH]c1C | IIIB |  | p24 |  | 0.0466 µM
CN1CCN(C)C(c2nc(C(=O)NCc3ccc(F)cc3)c(O)c(=O)[nH]2)C1 | IIIB |  | p24 | 50% human serum | <0.62 µM
CCN1CCn2c(=O)[nH]c3cc(Cl)cc(c32)S1(=O)=O |  |  | cytopathic effect / MTT |  | >200 µM
CC(C)=CCN1c2cc(Cl)cc3[nH]c(=S)n(c23)C[C@@H]1C |  | RT-M41L T215Y K103N |  |  | <0.8 µM
CC(C)CN(C[C@@H](O)[C@H](Cc1ccccc1)NC(=O)O[C@H]1CO[C@H]2OCC[C@H]21)S(=O)(=O)c1ccc(N)c(NCc2cncs2)c1 | IIIB WT |  | GFP |  | 0.0646 µM
Nc1ncnc2c1ncn2CCOCP(=O)(O)O |  |  | antigen |  | 1.6 µM
CCN(CC)C(=O)N1CCN(C(=O)N2CCN(C)CC2)CC1 | NL4-3 |  | MTT |  | >125 µg/mL
CCCN(C)C(=O)Oc1nsnc1-c1c(Cl)ccc(OCOC)c1Cl | IIIB |  | cytopathic effect / MTT |  | 0.067 µM
Cc1cc(C)c(Nc2nc(NC3CCN(Cc4ccc(Br)cc4)CC3)nc3nc[nH]c23)c(C)c1 | RES056 |  | MTT |  | >11.45 µM
C=C(COCP(=O)(O)O)Cn1cnc2c(=O)[nH]c(N)nc21 | HE |  |  |  | 17.7 µM
COC(=O)C(C)NP(=O)(OCC12CO[C@H](C1)[C@H](n1cc(C)c(=O)[nH]c1=O)O2)Oc1ccccc1 | IIIB |  | antigen |  | >300 µM
O=C1C=C2C(C3CC4=C(C5CC6=CC(=O)O[C@@]67C[C@@H]5N5CCCC57)C(=O)O[C@@]45C[C@@H]3N3CCCC35)=C[C@@H]3C[C@@]2(O1)C1CCCN13 | NL4-3 |  | MTT |  | 52.4 µM
CC(C)CNC(=O)[C@H](OCc1ccccc1)[C@H](O)[C@@H](O)[C@@H](OCc1ccccc1)C(=O)N[C@H]1c2ccccc2C[C@H]1O |  |  | cytopathic effect / XTT |  | >100 µM
Cc1cn([C@@H]2OC3(COP4(=O)OCc5ccccc5O4)CO[C@@H]2C3)c(=O)[nH]c1=O | IIIB |  | antigen |  | >300 µM
CC(=O)Oc1ccc(/C=C/C(=O)O[C@H](C(=O)O)[C@H](OC(=O)/C=C/c2ccc(OC(C)=O)c(OC(C)=O)c2)C(=O)O)cc1OC(C)=O | NL4-3 | Dextran sulfate-resistant |  |  | >93 µM
Cc1cn([C@H]2C[C@H](N=[N+]=[N-])[C@@H](CO)O2)c(=O)[nH]c1=O | IIIB |  | p24 / ELISA |  | <0.001 µg/mL
Cc1cn([C@H]2C[C@H](N=[N+]=[N-])[C@@H](CO)O2)c(=O)[nH]c1=O | RES056 |  | MTT |  | >0.006 µM
CN(C)C1(c2nc(C(=O)NCc3ccc(F)cc3)c(O)c(=O)[nH]2)CCOCC1 | IIIB |  | p24 | 50% human serum | <0.19 µM
CCN1CC(=O)Nc2c([N+](=O)[O-])cc(Cl)cc2S1(=O)=O |  |  | cytopathic effect / MTT |  | >200 µM
O=C(NCc1ccc(F)cc1)c1nc(C(c2ccccc2)N2CCCCC2)[nH]c(=O)c1O | IIIB |  | p24 | 10% FBS | <0.31 µM
CC(C)=CCN1C(C)C(=S)Nc2ccc(Cl)cc2S1(=O)=O |  |  | cytopathic effect / MTT |  | 4.6 µM
Cc1cc(C)c(Nc2nc(NC3CCN(Cc4ccc(C(N)=O)cc4)CC3)nc3nc[nH]c23)c(C)c1 | IIIB |  | MTT |  | 5.19 µM
Cc1cn([C@H]2C[C@H](N=[N+]=[N-])[C@@H](CO)O2)c(=O)[nH]c1=O | NL4-3 |  | MTT / absorbance |  | 0.063 µM
CN(C)C(=O)N1CCN(C(=O)N(C)CCN2CCCC2)CC1 | NL4-3 |  | MTT |  | 72 µg/mL
CO[Si](OC[C@H]1O[C@@H](n2cc(C)c(=O)n(C)c2=O)[C@H](O[Si](C)(C)C(C)(C)C)C12OS(=O)(=O)C=C2N)(c1ccccc1)C(C)(C)C | IIIB |  | syncytia |  | 3.4 µM
CC(C)(C)NC(=O)[C@@H]1C[C@@H]2CCCC[C@@H]2CN1C[C@@H](O)[C@H](Cc1ccccc1)NC(=O)[C@H](CC(N)=O)NC(=O)c1ccc2ccccc2n1 | HXB2 WT |  |  |  | 0.011 µM
C[C@H](Cn1cnc2c(N)ncnc21)OCP(=O)(O)O | IIIB |  |  |  | 5.9 µM
Nc1ncnc2c1ncn2[C@H]1CC[C@@H](CO)O1 | IIIB |  | cytopathic effect |  | 6.3 µM
Cc1cc(C)c(Nc2nc(NC3CCN(Cc4ccccn4)CC3)nc3nc[nH]c23)c(C)c1 | IIIB |  | MTT |  | 26.87 µM
O=C(NCc1ccccc1)[C@H](OCc1ccccc1)[C@H](O)[C@@H](O)[C@@H](OCc1ccccc1)C(=O)N[C@H]1c2ccccc2C[C@H]1O |  |  | cytopathic effect / XTT |  | 3 µM
COc1ccc(S(=O)(=O)N(CC2CCCC2)C[C@@H](O)[C@H](Cc2ccccc2)NC(=O)O[C@H]2CCOC2)cc1 | HXB2 |  | MTT |  | 0.029 µM
Cc1cn([C@@H]2O[C@H](COP3(=O)OCc4ccccc4O3)[C@@]3(N=[N+]=[N-])CO[C@@H]23)c(=O)[nH]c1=O | IIIB |  | antigen |  | >300 µM
CC(=O)c1ccc(C)cc1NC(C(N)=O)c1c(Cl)cccc1Cl | clinical isolate A018C AZT-resistant |  | p24 |  | 0.024 µM
Cc1cn([C@H]2C[C@H](N=[N+]=[N-])[C@@H](CO)O2)c(=O)[nH]c1=O |  | E138K | MTT |  | 0.036 µM
CC(C)(C)NC(=O)[C@@H]1CN(Cc2ncc(-c3ccccc3)s2)CCN1C[C@@H](O)C[C@@H](Cc1ccccc1)C(=O)N[C@H]1c2ccccc2C[C@H]1O | IIIB |  | p24 |  | <0.025 µM
CN1CCN(C(=O)N2CCN(C(=O)N(C)C)CC2)CC1 | NL4-3 |  | MTT |  | >125 µg/mL
CN(C)C1(c2nc(C(=O)NCc3ccc(F)cc3)c(O)c(=O)[nH]2)CCC1 | IIIB |  | p24 | 10% FBS | <0.02 µM
Cc1cc(C)c(Nc2nc(NC3CCN(Cc4ccccc4)CC3)nc3nc[nH]c23)c(C)c1 | IIIB |  | MTT |  | 8.15 µM
Cc1cc(-c2ccc(N=Nc3ccc4c(S(=O)(=O)O)cc(S(=O)(=O)O)c(N)c4c3O)c(C)c2)ccc1N=Nc1ccc2c(S(=O)(=O)O)cc(S(=O)(=O)O)c(N)c2c1O |  |  | cytopathic effect / trypan blue |  | 1.5 µM
COc1cc(O)c2c(c1)C(=O)c1c(cc3c(c1O)-c1c(cc(C)c(C(=O)N[C@H](C)C(=O)O)c1O)[C@H](O[C@@H]1O[C@H](C)[C@H](O)[C@H](O[C@@H]4OC[C@@H](OS(=O)(=O)O)[C@H](O)[C@H]4O)[C@H]1O)[C@H]3O)C2=O | IIIB |  | antigen |  | ~30 µg/mL
COC(=O)c1ccc(CN2CCC(Nc3nc(Nc4c(C)cc(C)cc4C)c4[nH]cnc4n3)CC2)cc1 | IIIB |  | MTT |  | 4.83 µM
Nc1ncnc2c1ncn2CCOCP(=O)(O)O |  |  | cytopathic effect / trypan blue |  | 2 µM
Cc1cn([C@@H]2O[C@H](COCc3ccccc3)C3(OS(=O)(=O)C=C3NC(=O)c3ccccc3)[C@H]2OC(=O)c2ccccc2)c(=O)[nH]c1=O | IIIB |  | syncytia |  | >40 µM
CCCN(C)C(=O)Oc1nsnc1-c1c(Cl)ccc([N+](=O)[O-])c1Cl | IIIB |  | cytopathic effect / MTT |  | 0.026 µM
CN1CCCC1c1nc(C(=O)NCc2ccc(F)cc2)c(O)c(=O)[nH]1 | IIIB |  | p24 | 10% FBS | <0.15 µM
Cc1ccccc1CN1C(C)C(=S)Nc2ccc(Cl)cc2S1(=O)=O |  |  | cytopathic effect / MTT |  | >200 µM
Cc1cn([C@H]2C[C@H](N=[N+]=[N-])[C@@H](CO)O2)c(=O)[nH]c1=O | IIIB |  | p24 |  | 0.0097 µM

A second listing of 5 rows from above:

SMILES | strain | changes | read by | setting | result
COC(=O)C(C)NP(=O)(OCC12CO[C@H](C1)[C@H](n1cc(C)c(=O)[nH]c1=O)O2)Oc1ccccc1 | IIIB |  | antigen |  | >300 µM
[NH4+] | GUN1 |  | antigen |  | >100 µg/mL
CCCN(C)C(=O)Oc1nsnc1-c1c(Cl)ccc([N+](=O)[O-])c1Cl | IIIB |  | cytopathic effect / MTT |  | 0.026 µM
Cc1cn([C@H]2C=C[C@@H](CO)O2)c(=O)[nH]c1=O | IIIB |  | trypan blue | 5 d | 0.65 µM
Cc1cn([C@@H]2O[C@]3(CO)CO[C@H]2C3)c(=O)[nH]c1=O | IIIB |  | antigen |  | >300 µM